Results taken from US20040132187A1 (PHARMACIA AND UPJOHN, published 2004).

Experiments:
[1] = molecular target: fluorescein labeled α-bungarotoxin (F-1176 Molecular Probes) (UniProt P60615 22-95); assay: fluorescent toxin binding to transfected SH-EP1 cells
unlabeled α-bungarotoxin = unlabeled α-bungarotoxin (UniProt P60615 22-95); assay: competition against Fl-btx, whole cell fluorescence on FLIPR (legend of FIG. 5)

B1: α7/5-HT3 Chimeric Ligand Gated Ion Channel (human α7 nAChR N-terminal 201 amino acids joined to the (receptor)
chain: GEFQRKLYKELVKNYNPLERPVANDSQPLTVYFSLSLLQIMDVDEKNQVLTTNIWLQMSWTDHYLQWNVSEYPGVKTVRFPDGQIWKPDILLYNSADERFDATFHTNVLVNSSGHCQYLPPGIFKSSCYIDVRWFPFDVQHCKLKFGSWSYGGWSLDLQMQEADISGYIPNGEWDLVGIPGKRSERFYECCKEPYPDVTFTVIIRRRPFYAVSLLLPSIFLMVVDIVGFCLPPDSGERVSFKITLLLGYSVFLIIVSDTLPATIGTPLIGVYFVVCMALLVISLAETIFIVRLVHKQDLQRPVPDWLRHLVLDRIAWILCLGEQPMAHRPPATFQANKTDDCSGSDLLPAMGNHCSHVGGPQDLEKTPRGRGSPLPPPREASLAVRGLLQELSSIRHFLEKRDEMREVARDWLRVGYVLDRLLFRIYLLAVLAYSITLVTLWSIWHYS
B1: binds [1]; binds (unlabeled α-bungarotoxin).
